The subject of this data set is HBV. Description: Cell-based anti-HBV activity of HF9C6 analogs (Table 2; HBV DNA in HepAD38 cells). Further details: species or system hepatitis B virus (HBV). The conditions noted are these: CC50/EC50. The method, then:
HepAD38 cells (5×10^4) were plated in 96-well plates in tet media. The next day, cells were washed 2× with PBS, and the media was replaced with complete media (DMEM, 10% FBS) containing compounds. Fresh complete media with compounds was added again after 2 days. After 2 additional days, cells were washed with PBS, trypsinized, and pelleted by centrifugation. The cell pellet was resuspended in 200 μl PBS, and DNA was extracted and analyzed as above. For dose responses, values were plotted in GraphPad Prism 5 and analyzed with the log (inhibitor) vs. normalized response—variable slope equation.
HepAD38 cells were seeded in 96-well plates (3×10^4 cells/well) in tet media. […] After 2 days, the media was removed, and fresh media containing compounds was added. After 2 additional days, cells were washed with PBS and lysed with 10 mM Tris (pH 7.5), 1mM EDTA, 100mM NaCl, 1% NP-40 at 37° C. for 30 min. 60 μl of lysate was added to 60 μl of 1 M NaOH, 1.5 M NaCl and incubated at RT for 5 min to denature DNA. 120 μl of 1 M Tris (pH 7.4), 2 M NaCl was added. […] Membranes were incubated with CDP-STAR® chemiluminescent substrate (Roche), imaged by chemiluminescence, and quantified by densitometry. Values were plotted in GraphPad Prism 5 and analyzed with the log (inhibitor) vs. normalized response—variable slope equation.

From patent publication US10759774B2, “Inhibitors of hepatitis B virus targeting capsid assembly” (THE CURATORS OF THE UNIVERSITY OF MISSOURI, priority 2017, dated 2020) come the findings set out here.

In turn, `Cc1c(C(=O)Nc2ccccc2)sc(N)c1C(N)=O` [HF9C6] yielded an SI of over 29.
